Anti-infective test results gathered from many reports (values: NIAID ChemDB through PubChem).

Shared fields: whole-cell or culture tests; organism: HIV-2; cell line: CEM + CEM TK-; read-out: EC50

Neighbouring rows are from separate reports. ECn: concentration that inhibits the pathogen or its effect by n%. An empty or dashed field is not shown.

structure | strain | read by | result
Cc1cn([C@H]2C[C@H](N=[N+]=[N-])[C@@H](CN3C(=O)c4c(Cl)c(Cl)c(Cl)c(Cl)c4C3=O)O2)c(=O)[nH]c1=O | ROD | syncytia | >180 µM
COC(=O)C(Cc1c[nH]c2ccccc12)NP(=O)(OC[C@@H]1C=C[C@H](n2cc(C)c(=O)[nH]c2=O)O1)Oc1ccccc1 | ROD | syncytia | 1.3 µM
Cc1cn([C@H]2C[C@H](N=[N+]=[N-])[C@@H](CN3C(=O)c4c(Br)c(Br)c(Br)c(Br)c4C3=O)O2)c(=O)[nH]c1=O | ROD | syncytia | >140 µM
CCCOC(=O)C(C)NP(=O)(OC[C@@H]1C=C[C@H](n2cc(C)c(=O)[nH]c2=O)O1)Oc1ccccc1 | ROD | cytopathic effect / trypan blue | 0.08 µM
COc1cccc2c1OP(=O)(OC[C@H]1O[C@@H](n3cc(C)c(=O)[nH]c3=O)C[C@@H]1N=[N+]=[N-])OC2 |  |  | >100 µM
Cc1cn([C@H]2C=C[C@@H](CO)O2)c(=O)[nH]c1=O | ROD | syncytia | 8.7 µM
Cc1cn([C@H]2C=C[C@@H](COP3(=O)Oc4ccccc4C(C(Cl)Cl)O3)O2)c(=O)[nH]c1=O |  |  | 27 µM
COC(=O)[C@H](C)NP(=O)(OC[C@@H]1C=C[C@H](n2cc(C)c(=O)[nH]c2=O)O1)Oc1ccccc1 | ROD | syncytia | 0.08 µM
Cc1cn([C@H]2C[C@H](N=[N+]=[N-])[C@@H](CN3C(=O)c4ccc(C(=O)OCC56CC7CC(CC(C7)C5)C6)cc4C3=O)O2)c(=O)[nH]c1=O | ROD | syncytia | >160 µM
Cc1cn([C@H]2C=C[C@@H](COP3(=O)Oc4ccccc4C(C)O3)O2)c(=O)[nH]c1=O | ROD | cytopathic effect / syncytia | >10 µM
Cc1cn([C@H]2C=C[C@@H](COP3(=O)Oc4ccccc4C(CCl)O3)O2)c(=O)[nH]c1=O |  |  | 22 µM
Cc1cn([C@H]2C[C@H](N=[N+]=[N-])[C@@H](CN3C(=O)c4ccc([N+](=O)[O-])cc4C3=O)O2)c(=O)[nH]c1=O | ROD | syncytia | >200 µM
CCCCCCCCCCCCCCOCCOP(=O)(O)OC[C@H]1O[C@@H](n2cc(C)c(=O)[nH]c2=O)C[C@@H]1N=[N+]=[N-] | ROD | syncytia | >7 µM
Cc1cn([C@H]2C[C@H](N=[N+]=[N-])[C@@H](CN3C(=S)c4ccccc4C3=S)O2)c(=O)[nH]c1=O | ROD | syncytia | >8 µM
Cc1cn([C@H]2C=C[C@@H](CO)O2)c(=O)[nH]c1=O |  |  | 15 µM
CCCCCCCCCCCCOP(=O)(O)OC[C@H]1O[C@@H](n2cc(C)c(=O)[nH]c2=O)C[C@@H]1N=[N+]=[N-] | ROD | syncytia | >40 µM
COC(=O)CC(OP(=O)(OC[C@@H]1C=C[C@H](n2cc(C)c(=O)[nH]c2=O)O1)OC(CC(=O)OC)c1ccc(OC(C)=O)cc1)c1ccc(OC(C)=O)cc1 | ROD | cytopathic effect / syncytia | 0.2 µM
COC(=O)CCc1cccc2c1OP(=O)(OC[C@@H]1C=C[C@H](n3cc(C)c(=O)[nH]c3=O)O1)OC2 | LAV-2 | syncytia | 0.4 µM
CC(=O)Oc1ccc(COP(=O)(OCc2ccc(OC(C)=O)cc2)OC[C@@H]2C=C[C@H](n3cc(C)c(=O)[nH]c3=O)O2)cc1 | ROD | cytopathic effect / syncytia | 0.13 µM
Cc1cn([C@H]2C[C@H](N=[N+]=[N-])[C@@H](COP(=O)(OCCSC(=O)C(C)(C)C)N3CCOCC3)O2)c(=O)[nH]c1=O | ROD | cytopathic effect / trypan blue | 2 µM
Cc1cn([C@H]2C=C[C@@H](CO)O2)c(=O)[nH]c1=O | ROD | syncytia | 33 µM
Cc1cccc2c1OP(=O)(OC[C@H]1O[C@@H](n3cc(C)c(=O)[nH]c3=O)C[C@@H]1N=[N+]=[N-])OC2 |  |  | 15 µM
Cc1cn([C@H]2C=C[C@@H](COP3(=O)OCc4c(ccc5ccccc45)O3)O2)c(=O)[nH]c1=O | ROD | syncytia | 0.3 µM
Cc1cn([C@H]2C=C[C@@H](COP3(=O)OCc4ccc5ccccc5c4O3)O2)c(=O)[nH]c1=O |  |  | 0.6 µM
CCCCCCCCCCCCCCCCOCCOP(=O)(O)OC[C@H]1O[C@@H](n2cc(C)c(=O)[nH]c2=O)C[C@@H]1N=[N+]=[N-] | ROD | syncytia | >7 µM
Cc1cn([C@H]2C[C@H](N=[N+]=[N-])[C@@H](COP3(=O)OCc4cc([N+](=O)[O-])ccc4O3)O2)c(=O)[nH]c1=O |  |  | >100 µM
Cc1cccc2c1O[P@](=O)(OC[C@@H]1C=C[C@H](n3cc(C)c(=O)[nH]c3=O)O1)OC2 |  |  | 0.048 µM
Cc1cc(C=O)cc2c1OP(=O)(OC[C@@H]1C=C[C@H](n3cc(C)c(=O)[nH]c3=O)O1)OC2 |  |  | 11.8 µM
Cc1cn([C@H]2C=C[C@@H](COP3(=O)OCc4cccc(CCC(=O)OCc5ccccc5)c4O3)O2)c(=O)[nH]c1=O | LAV-2 | syncytia | 2.89 µM
Cc1cn([C@H]2C=C[C@@H](COP3(=O)OCc4cc(-c5ccccc5)ccc4O3)O2)c(=O)[nH]c1=O | ROD | syncytia | 6 µM
Cc1cn([C@H]2C=C[C@@H](COP(=O)(O[C@H](C)c3ccccc3)O[C@H](C)c3ccccc3)O2)c(=O)[nH]c1=O | ROD | cytopathic effect / syncytia | >250 µM
COc1ccc2c(c1)COP(=O)(OC[C@H]1O[C@@H](n3cc(C)c(=O)[nH]c3=O)C[C@@H]1N=[N+]=[N-])O2 |  |  | 30 µM
COC(=O)C(C)(C)NP(=O)(OC[C@@H]1C=C[C@H](n2cc(C)c(=O)[nH]c2=O)O1)Oc1ccccc1 | ROD Laboratory clade B | syncytia | 0.06 µM

2 of the rows above, restated:

structure,strain,read by,result
Cc1cccc2c1O[P@](=O)(OC[C@@H]1C=C[C@H](n3cc(C)c(=O)[nH]c3=O)O1)OC2,,,0.048 µM
COC(=O)C(Cc1c[nH]c2ccccc12)NP(=O)(OC[C@@H]1C=C[C@H](n2cc(C)c(=O)[nH]c2=O)O1)Oc1ccccc1,ROD,syncytia,1.3 µM